Laboratory results as given in article PMC8263607, “Precise spatiotemporal control of voltage-gated sodium channels by photocaged saxitoxin” (2021).

Key:
[1] = cited from earlier work
corpus callosum = assay: Coumarin control in corpus callosum slice (LFP, CSD); settings: 500 nM, individual slices

| Structure (SMILES) | pKa [1] | Amplitude of peak CSD, N1 (corpus callosum) | Amplitude of peak CSD, N2 (corpus callosum) | Amplitude of peak LFP, N2 (corpus callosum) | Time of peak, N1 (corpus callosum) | Time of peak, N2 (corpus callosum) |
| --- | --- | --- | --- | --- | --- | --- |
| O=c1cc(CO)c2cc(Br)c(O)cc2o1 | 6.2 | – | – | – | – | – |
| O=C(O)CN(CC(=O)O)c1ccc2c(CO)cc(=O)oc2c1 | – | 10.6 and 6.6 and 11 | 13 and 21.9 and 38 | 0.4 and 0.47 and 0.57 | 1.4 and 1.43 and 1.28 | 3.78 and 3.41 and 2.58 |

Several values for one entry are separate records, joined by “and”; a condition that tells them apart may be missing. Equal values may be shown once.
